Experimental findings from paper PMC3542062, “A phenyl-thiadiazolylidene-amine derivative ejects zinc from retroviral nucleocapsid zinc fingers and inactivates HIV virions” (Retrovirology, 2012) are described below.

Experiment [1] relates to MT-4 cells. As to the kind of experiment: Cytotoxicity in mock-infected MT-4 cells (MTT). It counts as cell-based.
The subject of experiment [2] is NCp7(11-55). In words: Zinc ejection monitored by Trp37 intrinsic fluorescence. It counts as biochemical, HIV-1. The conditions noted are these: 10 μM compound, 100 μM zinc, after 30 minutes. As to the method:
Subsequently, the zinc ejection from NCp7(11-55) by WDO-217 exposure was investigated in function of time (Figure 1B and C). […] Ejection of 50% of the zinc is observed in less than 5 minutes (Figure 4C).
Figure 4 Zinc ejection from the NCp7(11-55) zinc fingers by WDO-217. (A) Emission spectra of NCp7(11-55) (1 μM) recorded in the absence (disks) and the presence of 10 μM WDO-217 (star). As a reference, NCp7(11-55) was treated with 1 mM EDTA, a well known zinc chelator (triangle). Pre-incubation time of WDO-217 with NCp7(11-55) was 1 hour. (B) Time-dependent zinc ejection from NCp7(11-55). The emission spectra of NCp7(11-55) (1 μM) were recorded in the absence (disks) and presence of WDO-217 (10 μM) at the different time points as indicated. […] The data points (stars) corresponded to the fluorescence intensity at the maximum emission wavelength from panel B. Solid line represents a double-exponential fit to the data. […] Then, 10 μM of WDO-217 was added, and the spectrum was recorded after 30 minutes of incubation (square). […]
The NC(11-55) peptide was synthesized by solid phase peptide synthesis on a 433A synthesizer (ABI, Foster City, CA), as previously described. The lyophilized peptide was dissolved in water, and its concentration was determined using an extinction coefficient of 5,700 M^–1 x cm^–1 at 280 nm. […]
Absorption spectra were recorded on a Cary 400 spectrophotometer. […]

Molecules are shown by their SMILES.

Regarding `Cn1sc(=N)nc1-c1ccccc1` [WDO-217, 2-methyl-3-phenyl-2H-[1,2,4]thiadiazol-5-ylideneamine], the average selective index entry in experiment [1] is on record as “approximately 20”. Also, in experiment [2], the “zinc ejection in presence of 100-fold excess of zinc sulphate” value was “nearly complete ejection”.
